Results of unrelated studies side by side (data: NIAID ChemDB).

Shared fields: growth or infection tests; agent: Aspergillus niger

Zone: diameter of growth inhibition. MIC50, MIC90 and the like: level of inhibition, or share of isolates inhibited. Inhibition is in % at the dose shown (toxicity tests: loss of growth or viability). Conditions beyond the fields shown may differ between rows. Blank or dashed fields: not listed here.

{"SMILES": "C[C@H]1Cc2oc3cc(O)c(O)cc3c(=O)c2[C@H](O)O1", "method": "absorbance", "measure": "inhibition", "tested at": "200 µg/mL", "value": "0%"}
{"SMILES": "COc1cc(/C=C2\\SC(=S)NC2=O)cc(OC)c1OCC(O)(Cn1cncn1)c1ccc(F)cc1F", "strain": "ATCC 16404", "method": "broth dilution", "measure": "MIC50", "value": "16 µg/mL"}
{"SMILES": "COc1ccc(/C=C2/S/C(=N/NC(=O)c3sc(NC(=O)c4ccc(F)cc4)nc3C)N(c3ccccc3)C2=O)cc1", "strain": "MTCC 282", "measure": "MIC50", "value": "100 µg/mL"}
{"SMILES": "COc1cc(C2=C(c3ccc(F)cc3F)COC2=O)ccc1OCC(O)(Cn1cncn1)c1ccc(F)cc1F", "strain": "ATCC 16404", "method": "broth dilution", "measure": "MIC50", "value": "8 µg/mL"}
{"SMILES": "Cc1ccc(/C=C2/SC(=O)N(CC(=O)Nc3nc4ccc(SC#N)cc4s3)C2=O)cc1", "strain": "MTCC 282", "method": "broth dilution / visual reading", "measure": "MIC", "value": "500 µg/mL"}
{"SMILES": "CC(=O)N1CCN(c2ccc(OC[C@H]3CO[C@](Cn4ccnc4)(c4ccc(Cl)cc4Cl)O3)cc2)CC1", "strain": "Species complex", "measure": "MIC50", "value": "1 µg/mL"}
{"SMILES": "Cc1ccc2nc(Cl)c(C3SC(=Cc4ccc(O)cc4)C(=O)N3n3c(-c4ccc(Cl)cc4)nc4ccccc4c3=O)cc2c1", "method": "broth dilution / visual reading", "measure": "MIC99", "value": "100 µg/mL"}
{"SMILES": "Cc1ccc(/C=C2/S/C(=N/NC(=O)c3sc(NC(=O)c4ccc(F)cc4)nc3C)N(c3ccccc3)C2=O)cc1", "strain": "MTCC 282", "measure": "MIC50", "value": "100 µg/mL"}
{"SMILES": "O=C1CC(c2ccccc2)CC2=C1C(c1ccc(C3C4=C(CC(c5ccccc5)CC4=O)OC4=C3C(=O)CC(c3ccccc3)C4)cc1)C1=C(CC(c3ccccc3)CC1=O)O2", "strain": "ATCC 10949", "method": "agar diffusion", "measure": "zone", "tested at": "40 µg/disc", "value": "0 mm"}
{"SMILES": "Cc1ccc2nc(Cl)c(C3SC(=Cc4cccc(Cl)c4)C(=O)N3n3c(-c4ccc(Cl)cc4)nc4ccccc4c3=O)cc2c1", "method": "broth dilution / visual reading", "measure": "MIC99", "value": "1000 µg/mL"}
{"SMILES": "O=C1CC(c2ccccc2)CC2=C1C(c1cccc(C3C4=C(CC(c5ccccc5)CC4=O)OC4=C3C(=O)CC(c3ccccc3)C4)c1)C1=C(CC(c3ccccc3)CC1=O)O2", "strain": "ATCC 10949", "method": "agar diffusion", "measure": "zone", "tested at": "40 µg/disc", "value": "0 mm"}
{"SMILES": "COc1cc(/C=C2/SC(=O)NC2=O)ccc1O", "strain": "MTCC 282", "method": "broth dilution / visual reading", "measure": "MIC", "value": "100 µg/mL"}
{"SMILES": "Cc1ccc2nc(Cl)c(C3SC(=Cc4ccc(Cl)cc4)C(=O)N3n3c(-c4ccc(Cl)cc4)nc4ccccc4c3=O)cc2c1", "method": "broth dilution / visual reading", "measure": "MIC99", "value": "100 µg/mL"}
{"SMILES": "Cc1nc(NC(=O)c2ccc(F)cc2)sc1C(=O)N/N=C1/S/C(=C/c2ccc(O)cc2)C(=O)N1c1ccccc1", "strain": "MTCC 282", "measure": "MIC50", "value": "250 µg/mL"}
{"SMILES": "COc1cc(C=O)cc(OC)c1OCC(O)(Cn1cncn1)c1ccc(F)cc1F", "strain": "ATCC 16404", "method": "broth dilution", "measure": "MIC50", "value": "128 µg/mL"}
{"SMILES": "Cc1ccc2nc(Cl)c(C3SC(=Cc4ccccc4O)C(=O)N3n3c(-c4ccc(Cl)cc4)nc4ccccc4c3=O)cc2c1", "method": "broth dilution / visual reading", "measure": "MIC99", "value": "100 µg/mL"}
{"SMILES": "N#CSc1ccc2nc(NC(=O)CN3C(=O)S/C(=C/c4ccc(Cl)cc4)C3=O)sc2c1", "strain": "MTCC 282", "method": "broth dilution / visual reading", "measure": "MIC", "value": "1000 µg/mL"}
{"SMILES": "COC1OC(C)Cc2oc3cc(O)c(O)c(C(=O)O)c3c(=O)c21", "method": "absorbance", "measure": "inhibition", "tested at": "200 µg/mL", "value": "0%"}
{"SMILES": "CC1(C)CCC2=C(C1=O)C(c1ccc(C3C4=C(CCC(C)(C)C4=O)OC4=C3C(=O)C(C)(C)CC4)cc1)C1=C(CCC(C)(C)C1=O)O2", "strain": "ATCC 10949", "method": "agar diffusion", "measure": "zone", "tested at": "140 µg/disc", "value": "7 mm"}
{"SMILES": "Cc1cccc(/C=C2/S/C(=N/NC(=O)c3sc(NC(=O)c4ccc(F)cc4)nc3C)N(c3ccccc3)C2=O)c1", "strain": "MTCC 282", "measure": "MIC50", "value": "100 µg/mL"}
{"SMILES": "COc1ccc(C2CC(=O)C3=C(C2)OC2=C(C(=O)CC(c4ccc(OC)c(OC)c4)C2)C3c2cccc(C3C4=C(CC(c5ccc(OC)c(OC)c5)CC4=O)OC4=C3C(=O)CC(c3ccc(OC)c(OC)c3)C4)c2)cc1OC", "strain": "ATCC 10949", "method": "agar diffusion", "measure": "zone", "tested at": "140 µg/disc", "value": "7 mm"}
{"SMILES": "O=C1OCC(c2ccccc2)=C1c1ccc(OCC(O)(Cn2cncn2)c2ccc(F)cc2F)cc1", "strain": "ATCC 16404", "method": "broth dilution", "measure": "MIC50", "value": "4 µg/mL"}
{"SMILES": "CC1(C)CC(=O)C2=C(C1)OC1=C(C(=O)CC(C)(C)C1)C2c1ccc(C2C3=C(CC(C)(C)CC3=O)OC3=C2C(=O)CC(C)(C)C3)cc1", "strain": "ATCC 10949", "method": "agar diffusion", "measure": "zone", "tested at": "140 µg/disc", "value": "0 mm"}
{"SMILES": "C/C(=N\\NC(=S)Nc1cccc([N+](=O)[O-])c1)c1c(O)ccc2c(C)cc(=O)oc12", "method": "agar diffusion / agar", "measure": "inhibition", "tested at": "50 µg/mL", "value": "76.53%"}
{"SMILES": "Cc1ccc2nc(Cl)c(C3SC(=Cc4ccccc4[N+](=O)[O-])C(=O)N3n3c(-c4ccc(Cl)cc4)nc4ccccc4c3=O)cc2c1", "method": "broth dilution / visual reading", "measure": "MIC99", "value": "500 µg/mL"}
{"SMILES": "COc1cc(C2=C(c3ccc(F)cc3)COC2=O)ccc1OCC(O)(Cn1cncn1)c1ccc(F)cc1F", "strain": "ATCC 16404", "method": "broth dilution", "measure": "MIC50", "value": "8 µg/mL"}
{"SMILES": "Cc1nc(NC(=O)c2ccc(F)cc2)sc1C(=O)N/N=C1/S/C(=C/c2ccc(F)cc2)C(=O)N1c1ccccc1", "strain": "MTCC 282", "measure": "MIC50", "value": "250 µg/mL"}
{"SMILES": "COc1cc(C=C2SC(c3cc4cc(C)ccc4nc3Cl)N(n3c(-c4ccc(Cl)cc4)nc4ccccc4c3=O)C2=O)cc(OC)c1OC", "method": "broth dilution / visual reading", "measure": "MIC99", "value": "100 µg/mL"}

Repeating the final 3 entries:

SMILES	strain	method	measure	tested at	value
COc1cc(C2=C(c3ccc(F)cc3)COC2=O)ccc1OCC(O)(Cn1cncn1)c1ccc(F)cc1F	ATCC 16404	broth dilution	MIC50	-	8 µg/mL
Cc1nc(NC(=O)c2ccc(F)cc2)sc1C(=O)N/N=C1/S/C(=C/c2ccc(F)cc2)C(=O)N1c1ccccc1	MTCC 282	-	MIC50	-	250 µg/mL
COc1cc(C=C2SC(c3cc4cc(C)ccc4nc3Cl)N(n3c(-c4ccc(Cl)cc4)nc4ccccc4c3=O)C2=O)cc(OC)c1OC	-	broth dilution / visual reading	MIC99	-	100 µg/mL